Compound potency records, mixed from different reports. Data source: NIAID ChemDB in PubChem.

Common to all: tests in culture; organism: Aspergillus niger; read-out: MIC

Blank or dashed fields: not listed here. Lines come from different laboratories, so protocols vary. Two numbers with a dash give a range or band.

CC1CCC(C(C)C)C(OC(=O)c2ccccc2Cl)C1 ; value: 7.94 µM
O=C(NN1C(=O)/C(=C/c2cc3ccccc3nc2Cl)N=C1c1ccccc1)c1cc(Cl)ccc1Cl ; strain: MTCC 282 ; read by: broth dilution ; value: 500 µg/mL
Cc1ccc2nc(Nc3nc(Nc4ccc(C#N)cc4)nc(Oc4cc(=O)n(C)c5ccccc45)n3)sc2c1 ; strain: MTCC 2825 ; read by: agar ; value: 500 µg/mL
COc1cccc(OCC(=O)c2ccccc2)c1 ; strain: ATCC 16404 ; read by: broth dilution ; conditions: 48 h ; value: >125 µg/mL
COC(=O)[C@@H]1CCCN1C(=O)CNC(=O)[C@H](C)NC(=O)[C@@H]1CCCN1C(=O)c1ccccc1-c1cnc(C)[nH]1 ; value: 12.5 µg/mL
O=c1[nH][nH]c2c1C(c1ccccc1)CC(Cc1ccc3ccccc3c1)=C2 ; read by: agar diffusion ; value: 50 µg/mL
COC(=O)[C@H](Cc1ccc(O)cc1)NC(=O)COc1cc(=O)oc2ccccc12 ; value: 12.5 µg/mL
OB(O)c1ccccc1 ; read by: turbidity ; value: 250 µg/mL
O=C(COc1c(Br)c(=O)oc2ccccc12)N[C@@H](Cc1cnc[nH]1)C(=O)O[C@@H](Cc1c[nH]c2ccccc12)C(=O)O ; value: 12.5 µg/mL
O=C(O)CNCC(=O)Nc1cccc2c1C(=O)c1ccccc1C2=O ; strain: VKM F-1119 ; value: 1.9 µg/mL
CCn1sc(=Nc2ccc(C(C)=O)cc2)n(CC)c1=Nc1ccc(C(C)=O)cc1 ; value: 80–100 µg/mL
O=C(NN1C(=O)/C(=C/c2cc3ccccc3nc2Cl)N=C1c1ccccc1)c1ccc(Cl)cc1 ; strain: MTCC 282 ; read by: broth dilution ; value: 100 µg/mL
COc1cc(/C=N/O)ccc1OP1(Oc2ccc(/C=N/OC(=O)c3ccccc3Cl)cc2OC)=NP(Oc2ccc(/C=N/O)cc2OC)(Oc2ccc(/C=N/OC(=O)c3ccccc3Cl)cc2OC)=NP(Oc2ccc(/C=N/OC(=O)c3ccccc3Cl)cc2OC)(Oc2ccc(/C=N/OC(=O)c3ccccc3Cl)cc2OC)=N1 ; read by: agar diffusion / agar ; value: >100 µg/mL
COc1ccc(OC/C(=N/O)c2ccccc2)cc1 ; strain: ATCC 16404 ; read by: broth dilution ; conditions: 72 h ; value: >125 µg/mL
N#Cc1ccc(Nc2nc(Oc3cccc4cccnc34)nc(N3CCN(c4ncccn4)CC3)n2)cc1C(F)(F)F ; strain: MTCC 282 ; read by: agar ; value: 12.5 µg/mL
Cc1ncc(-c2ccc(I)cc2C(=O)N[C@H](C(=O)N[C@@H](C)C(=O)N[C@@H](Cc2cnc[nH]2)C(=O)N2CCC[C@H]2C(=O)O)[C@@H](C)O)[nH]1 ; value: 12.5 µg/mL
O=C1CCC(c2ccccc2)=NN1Cc1n[nH]c(=S)n1-c1ccc(Cl)cc1 ; value: 6 µg/mL
COc1ccc(Br)cc1/C=N/NC(=O)Cc1cccc(Br)c1 ; read by: MTT ; value: >150 µM
OB1OCc2cc(F)ccc21 ; read by: turbidity ; value: <0.9 µg/mL
N#Cc1c(-c2cccc(Cl)c2)cc(-c2cc3cc(F)ccc3oc2=O)nc1NS(=O)(=O)c1ccccc1 ; strain: MTCC 282 ; read by: turbidity ; value: 1000 µg/mL
Cn1c(=O)cc(Oc2nc(Nc3ccc(C#N)cc3)nc(Nc3nc4ccc([N+](=O)[O-])cc4s3)n2)c2ccccc21 ; strain: MTCC 2825 ; read by: agar ; value: 12.5 µg/mL
CCN(Cc1ccccc1B(O)O)c1ccccc1 ; read by: turbidity ; value: 250 µg/mL
CC1Oc2ccccc2/C(=N/Nc2ccccc2)C1n1ccnc1 ; strain: PTCC 5012 ; read by: agar ; value: 16 µg/mL
CSCCC(NCC(=O)Nc1cccc2c1C(=O)c1ccccc1C2=O)C(=O)O ; strain: VKM F-1119 ; value: 15.6 µg/mL
C[C@H]1N(C(=O)c2ccc(C(F)(F)F)cc2)CCO[C@@]1(Cn1cncn1)c1ccc(F)cc1F ; strain: Isolate 2 ; value: 100 µg/mL
CC(C)CC(NCC(=O)Nc1cccc2c1C(=O)c1ccccc1C2=O)C(=O)O ; strain: VKM F-1119 ; value: 125 µg/mL
Cn1c(=O)cc(Oc2nc(Nc3ccc(C#N)cc3)nc(Oc3cc(=O)n(C)c4ccccc34)n2)c2ccccc21 ; strain: MTCC 2825 ; read by: agar ; value: 100 µg/mL
Cc1ccc(N2COc3c(ccc4ccccc34)C2)cc1 ; strain: NCIM 545 ; value: 25 µg/mL
CC(=O)OC1CC(C)CCC1C(C)C ; value: 10.47 µM
COc1cc(OCC(=O)c2ccccc2)cc(OC)c1OC ; strain: ATCC 16404 ; read by: broth dilution ; conditions: 72 h ; value: >125 µg/mL
CC(C)C(NCC(=O)Nc1cccc2c1C(=O)c1ccccc1C2=O)C(=O)O ; strain: VKM F-1119 ; value: >500 µg/mL
Cn1c(=O)cc(Oc2nc(Nc3ccc(C#N)cc3)nc(Nc3cnccn3)n2)c2ccccc21 ; strain: MTCC 2825 ; read by: agar ; value: 250 µg/mL
O=C(NN1C(=O)/C(=C/c2cc3ccccc3nc2Cl)N=C1c1ccccc1)c1ccc(Cl)cc1O ; strain: MTCC 282 ; read by: broth dilution ; value: 250 µg/mL
O=C1CCC(c2ccc(Cl)cc2)=NN1Cc1n[nH]c(=S)n1-c1ccc(Cl)cc1 ; value: 4 µg/mL
O=C(COc1cc(=O)oc2ccccc12)N[C@@H](Cc1ccc(O)cc1)C(=O)O ; value: 12.5 µg/mL
Cc1cccc(-c2cc(-c3cc4cc(F)ccc4oc3=O)nc(NS(=O)(=O)c3ccccc3)c2C#N)c1 ; strain: MTCC 282 ; read by: turbidity ; value: 500 µg/mL
CC(C)Cc1ccc(CC2=Cc3[nH][nH]c(=O)c3C(c3ccc(Br)cc3)C2)cc1 ; read by: agar diffusion ; value: 100 µg/mL
O=C(NN1C(=O)/C(=C/c2cc3ccccc3nc2Cl)N=C1c1ccccc1)c1ccc([N+](=O)[O-])cc1 ; strain: MTCC 282 ; read by: broth dilution ; value: 100 µg/mL
N#Cc1ccc(Nc2nc(Oc3cccc4cccnc34)nc(N3CCOCC3)n2)cc1C(F)(F)F ; strain: MTCC 282 ; read by: agar ; value: 6.25 µg/mL
Cc1cc(=O)oc2c(C=NCCN=Cc3c(O)ccc4c(C)cc(=O)oc34)c(O)ccc12 ; value: 10 µg/mL
O/N=C(\COc1ccccc1)c1ccccc1 ; strain: ATCC 16404 ; read by: broth dilution ; conditions: 72 h ; value: >125 µg/mL
CC(=O)N1CCN(c2nc(Nc3ccc(C#N)c(C(F)(F)F)c3)nc(Oc3cccc4cccnc34)n2)CC1 ; strain: MTCC 282 ; read by: agar ; value: 12.5 µg/mL
C[C@H]1[C@H](O)[C@@H](C)/C=C/C=C/C=C/C=C/C=C/C=C/C=C/[C@H](O[C@@H]2O[C@H](C)[C@@H](O)[C@H](N)[C@@H]2O)C[C@@H]2O[C@](O)(C[C@@H](O)C[C@@H](O)CC[C@H](O)[C@@H](O)C[C@@H](O)CC(=O)O[C@H]1C)C[C@H](O)[C@H]2C(=O)O ; strain: As1 ; read by: agar diffusion ; value: 45 µg/mL
O=c1[nH][nH]c2c1C(c1ccc(Br)cc1)CC(Cc1ccc3ccccc3c1)=C2 ; read by: agar diffusion ; value: 12.5 µg/mL
O=C(Cc1ccccc1F)N/N=C/c1cc([N+](=O)[O-])ccc1Cl ; read by: MTT ; value: >150 µM
CC(NCC(=O)Nc1cccc2c1C(=O)c1ccccc1C2=O)C(=O)O ; strain: VKM F-1119 ; value: 31.2 µg/mL
CC1CCC(C(C)C)C(OC(=O)c2ccccc2[N+](=O)[O-])C1 ; value: 6.76 µM
CCC(=O)O/N=C/c1ccc(OP2(Oc3ccc(/C=N/OC(=O)CC)cc3OC)=NP(Oc3ccc(/C=N/OC(=O)CC)cc3OC)(Oc3ccc(/C=N/OC(=O)CC)cc3OC)=NP(Oc3ccc(/C=N/OC(=O)CC)cc3OC)(Oc3ccc(/C=N/OC(=O)CC)cc3OC)=N2)c(OC)c1 ; read by: agar diffusion / agar ; value: >100 µg/mL
N#Cc1c(-c2ccc(O)cc2)cc(-c2cc3cc(F)ccc3oc2=O)nc1NS(=O)(=O)c1ccccc1 ; strain: MTCC 282 ; read by: turbidity ; value: 50 µg/mL
CC1Oc2ccccc2C(=O)C1n1ccnc1 ; strain: PTCC 5012 ; read by: agar ; value: >64 µg/mL
c1ccc(N2COc3c(ccc4ccccc34)C2)cc1 ; strain: NCIM 545 ; value: 15 µg/mL
Cn1c(=O)cc(Oc2nc(Nc3ccc(C#N)cc3)nc(Nc3nc4ccccc4s3)n2)c2ccccc21 ; strain: MTCC 2825 ; read by: agar ; value: 200 µg/mL
N#Cc1c(-c2cccc(F)c2)cc(-c2cc3cc(F)ccc3oc2=O)nc1NS(=O)(=O)c1ccccc1 ; strain: MTCC 282 ; read by: turbidity ; value: 500 µg/mL
CCOc1ccc(N2COc3c(ccc4ccccc34)C2)cc1 ; strain: NCIM 545 ; value: 15 µg/mL
COC(=O)[C@@H]1CCCN1C(=O)COc1c(Br)c(=O)oc2ccccc12 ; value: 12.5 µg/mL
Cc1cc(=O)oc2c(C=Nc3ccccc3N=Cc3c(O)ccc4c(C)cc(=O)oc34)c(O)ccc12 ; value: 10 µg/mL
CCC(C)CCCCCCCCCCC(=O)N[C@H]1C[C@@H](O)[C@@H](O)NC(=O)C2[C@@H](O)[C@@H](C)CN2C(=O)C(CO)NC(=O)C([C@H](O)C(O)c2ccc(O)cc2)NC(=O)NC(=O)[C@@H]2C[C@@H](O)CN2C(=O)[C@H]([C@@H](C)O)NC1=O ; value: 31.25 µg/mL
O=C(COc1ccc(F)cc1)c1ccccc1 ; strain: ATCC 16404 ; read by: broth dilution ; conditions: 72 h ; value: >125 µg/mL
COc1cc(C=O)ccc1OP1(Oc2ccc(C=O)cc2OC)=NP(Oc2ccc(C=O)cc2OC)(Oc2ccc(C=O)cc2OC)=NP(Oc2ccc(C=O)cc2OC)(Oc2ccc(C=O)cc2OC)=N1 ; read by: agar diffusion / agar ; value: >100 µg/mL
CC1CCC(C(C)C)C(OC(=O)/C=C/c2ccccc2[N+](=O)[O-])C1 ; value: 4.68 µM
Cc1ccc(C2=NN(Cc3n[nH]c(=S)n3-c3ccc(Cl)cc3)C(=O)CC2)cc1 ; value: 5 µg/mL
O/N=C(/COc1ccc(F)cc1)c1ccccc1 ; strain: ATCC 16404 ; read by: broth dilution ; conditions: 48 h ; value: >125 µg/mL
COc1ccc(C2CC(Cc3ccc(CC(C)C)cc3)=Cc3[nH][nH]c(=O)c32)cc1 ; read by: agar diffusion ; value: 50 µg/mL
O=C1CCC(c2ccc(Oc3ccccc3)cc2)=NN1Cc1n[nH]c(=S)n1-c1ccc(Br)cc1 ; value: 15 µg/mL
COc1ccc(Br)cc1/C=N/NC(=O)Cc1ccc(C)cc1 ; read by: MTT ; value: >150 µM
CCN=C(Nc1cccc(Cl)c1)N(CC)c1nc2cc(Cl)ccc2s1 ; value: 60–80 µg/mL
COc1ccc2nc(Nc3nc(Nc4ccc(C#N)cc4)nc(Oc4cc(=O)n(C)c5ccccc45)n3)sc2c1 ; strain: MTCC 2825 ; read by: agar ; value: 100 µg/mL
CCN1CCN(c2nc(Nc3ccc(C#N)c(C(F)(F)F)c3)nc(Oc3cccc4cccnc34)n2)CC1 ; strain: MTCC 282 ; read by: agar ; value: 50 µg/mL
COc1cc(/C=N/OC(=O)CCl)ccc1OP1(Oc2ccc(/C=N/OC(=O)CCl)cc2OC)=NP(Oc2ccc(/C=N/OC(=O)CCl)cc2OC)(Oc2ccc(/C=N/OC(=O)CCl)cc2OC)=NP(Oc2ccc(/C=N/OC(=O)CCl)cc2OC)(Oc2ccc(/C=N/OC(=O)CCl)cc2OC)=N1 ; read by: agar diffusion / agar ; value: >100 µg/mL
OB1OC(N2CCN(C3OB(O)c4ccccc43)CC2)c2ccccc21 ; read by: turbidity ; value: <0.9 µg/mL
CCn1sc(=Nc2ccc(C)cc2)n(CC)c1=Nc1ccc(C)cc1 ; value: 100–120 µg/mL
O=C(N/N=C/c1cc([N+](=O)[O-])ccc1O)c1ccc(I)cc1 ; strain: Strain #2 ; value: 0.4 µg/mL

For reference, 9 entries again:

SMILES,strain,read by,conditions,value
Cc1ccc(C2=NN(Cc3n[nH]c(=S)n3-c3ccc(Cl)cc3)C(=O)CC2)cc1,-,-,-,5 µg/mL
CC(NCC(=O)Nc1cccc2c1C(=O)c1ccccc1C2=O)C(=O)O,VKM F-1119,-,-,31.2 µg/mL
Cn1c(=O)cc(Oc2nc(Nc3ccc(C#N)cc3)nc(Oc3cc(=O)n(C)c4ccccc34)n2)c2ccccc21,MTCC 2825,agar,-,100 µg/mL
CCN=C(Nc1cccc(Cl)c1)N(CC)c1nc2cc(Cl)ccc2s1,-,-,-,60–80 µg/mL
Cc1ccc(N2COc3c(ccc4ccccc34)C2)cc1,NCIM 545,-,-,25 µg/mL
CC1CCC(C(C)C)C(OC(=O)/C=C/c2ccccc2[N+](=O)[O-])C1,-,-,-,4.68 µM
O=C(COc1c(Br)c(=O)oc2ccccc12)N[C@@H](Cc1cnc[nH]1)C(=O)O[C@@H](Cc1c[nH]c2ccccc12)C(=O)O,-,-,-,12.5 µg/mL
O=C(NN1C(=O)/C(=C/c2cc3ccccc3nc2Cl)N=C1c1ccccc1)c1cc(Cl)ccc1Cl,MTCC 282,broth dilution,-,500 µg/mL
C[C@H]1N(C(=O)c2ccc(C(F)(F)F)cc2)CCO[C@@]1(Cn1cncn1)c1ccc(F)cc1F,Isolate 2,-,-,100 µg/mL